Values quoted from earlier work, collected in patent US7144731B2, “SCF antibody compositions and methods of using the same” (Amgen Inc., priority 1989, dated 2006).

Test system: HIV
Settings: other studies; cited from earlier work

B1: IL-3: human interleukin-3 (protein, UniProt P08700 20-152, looked up)
Interleukin-3: APMTQTTPLKTSWVNCSNMIDEIITHLKQPPLPLLDFNNLNGEDQDILMENNLRRPNLEAFNRAVKSLQNASAIESILKNLLPCLPLATAAPTRHPIHIKDGDWNEFRRKLTFYLKTLENAQAQQTTLSLAIF
replication of HIV in partially purified primary peripheral blood monocytes: significantly increase replication of HIV
